In ChEMBL document CHEMBL3988442, “University of Dundee, Small-Polar-MMV Screening Library” (2021) one finds Percent Effect data, which are given here for one molecule.

This assay concerns Toxoplasma gondii. The assay can be described thus: In vitro enzyme assay to detect hydrolysis of chlorophenol red-beta-D-[…] directly proportional to the number of Toxoplasma stably expressing beta-galactosidase. Format: functional, organism-based. Also noted: scale not given: in the data most compounds retested in dose-response had high values. Particulars: 50 µM.

This is a selection; strong and weak results do not stand in their true shares.

As to `NC(CF)c1ccc(F)cc1` (stereo unspecified), the Percent Effect was -1.87%.
